Data source: PubChem BioAssay AID1259414 (Drosophila RNAi Screening Center, 2018)
Test: 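Genome-wide screen for host control of endosymbiont load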 (primary screen). Cells: Drosophila JW18 cells infected with Wolbachia. Knock-down reagent: long dsRNA against Drosophila genes, 0.25 µg dsRNA per well of a 384-well plate. Timing: 5 days. Treatment: cells persistently infected with Wolbachia before knock-down; no added drug. Measurement: 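Automated imaging of bacterial rRNA staining divided by host cell count, reported as plate-normalised robust z-score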. Direction: Wolbachia per cell robust z: higher = more Wolbachia per host cell than the plate typical. Active means: 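Active if absolute robust z reaches 1.5 in two or more of three replicates, leaving out multi- or no-target dsRNAs, genes unexpressed in JW18 and A1 wells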.
In all, the deposit lists about 24,000 reagents; below is a random part of those with a known target gene and a result. Over the whole deposit, about 1,210 (5%) got an active call. 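Inactive calls also include excluded dsRNAs with several or no targets, genes unexpressed in JW18, and well A1, regardless of score.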 A number with no mark means an inactive call. Reagents against one gene are numbered here. A plus sign joins genes that one reagent is predicted to hit. Reagent sequences are not shown.

gene knocked down,reagent,"Wolbachia per cell robust z, rep 1","Wolbachia per cell robust z, rep 2","Wolbachia per cell robust z, rep 3"
CG33290,1,-0.968,0.424,-0.115
CG33290,2,1.03,0.575,0.656
Pdk1 (Phosphoinositide-dependent kinase 1),1,2.35 (active),1.62,1.36
Pdk1 (Phosphoinositide-dependent kinase 1),2,0.138 (active),1.94,1.69
Ntmt (N-terminal methyltransferase),1,0.958,-2.24,0.304
Ntmt (N-terminal methyltransferase),2,0.165,0.845,-0.675
CG33725,1,0.275,-0.258,0.228
Noc2 (Nucleolar complex protein 2),1,0.36,0.653,0.495
CG11357,1,0.161,0.46,0.868
Lgr3 (Leucine-rich repeat-containing G protein-coupled receptor 3),1,0.534,-0.0821,-0.114
Lgr3 (Leucine-rich repeat-containing G protein-coupled receptor 3),2,-0.0222,-0.0914,1.18
CG15247,1,-1.11,0.381,-0.697
CG15247,2,1.23,-0.493,1.87
CG11444,1,-0.206,-0.197,-0.792
CG11444,2,-1.13,-0.199,-13.8
DAT (Dopamine transporter),1,-3.77,-0.119,0.134
SpdS (Spermidine Synthase),1,-0.0213,0.434,-0.317
CG30419,1,-1.46,0.354,0.389
CG30419,2,0.601,-0.427,0.107
CG30419,3,0.822,1.03,-0.825
CG13796 + CG31904,1,0.158,-1.91,-0.336
swm (second mitotic wave missing),1,0.16,0.448,0.999
swm (second mitotic wave missing),2,0.848,-0.129,0.275
RYa-R (RYamide receptor),1,0.44,0.97,-0.503
Dbp45A (DEAD box protein 45A),1,1.73,-0.000148,0.621
Prosbeta5R2 (Proteasome beta5 subunit-related 2),1,-0.357,-0.0217,-4.86
Prosbeta5R2 (Proteasome beta5 subunit-related 2),2,-0.783,-7.17,-0.784
Nle (Notchless),1,0.0505,-0.519,6.06

A stretch taken from the entries so far, as a working copy:
gene knocked down,reagent,"Wolbachia per cell robust z, rep 1","Wolbachia per cell robust z, rep 2","Wolbachia per cell robust z, rep 3"
CG15247,2,1.23,-0.493,1.87
CG11444,1,-0.206,-0.197,-0.792
CG11444,2,-1.13,-0.199,-13.8
DAT (Dopamine transporter),1,-3.77,-0.119,0.134
